The assay deals with SARS-CoV-2 XBB.1.5 RBD (SARS-CoV-2, Omicron XBB.1.5, strain).

The results in this text go back to publication PMC11952088 (Science Advances, 2025).

Changes are numbered by the printed parent chain.

B1: AZD3152 (antibody, V domains shown)
VH: EVQLVESGGGLVQPGRSLRLSCAASGFPFDDYAIHWVRLAPGKGLEWVSSISWDSGSIGYADSVKGRFTISRDNAKNSLYLQMNSLRAEDTALYYCAKGAFPGYSSGWYYGLEVWGQGTTVTVSS
VL: QSVVTQPPSASGSLGQSVTISCTGTSSDVGGYNYVSWYQQHPGKAPKLMIFEVSKRPSGVPDRFSGSKSGNTASLTVSGLQAEDEADYYCSSYAGNKGVFGGGTKLTVL
On to B1, for which the Kd is 2.01 nM, the koff worked out at 0.000944 s⁻¹ and the on-rate (kon) was determined as 469000 M⁻¹ s⁻¹.

B2: 3152-1142 (antibody, V domains shown)
VH: B1 VH with S57E, A100E
VL: B1 VL with N33D, K55Q, G95H
Consider B2, for which the Kd is 0.0968 nM, the off-rate constant (koff) was determined as 9.53e-05 s⁻¹ and the kon worked out at 985000 M⁻¹ s⁻¹.
